For 92 molecules, CPE inhibition results are on record in PubChem BioAssay AID651640 (Broad Institute, 2012).

This is a selection; strong and weak results do not stand in their true shares. Results filed as inconclusive are left out. The source made the active and inactive calls. Rule as the data show it: active = CPE inhibition above about 20% (passing the limit was not always enough); inconclusive = no clear call, values can overlap the other calls; tested in BHK-21 cells.

The nature of this assay: inhibitors of DENV2 cytopathic effect, primary screen, cell-based, plate reader, single concentration (AID 651640).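 Also: 0% = median of neutral control wells and 100% = median of positive control wells.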 The conditions noted are these: DENV2-infected cells, cytopathic effect rescue, at 9.99 µM, hits give high values.
As to `O=c1[nH]c2ccccc2n1C1CCN(C(c2cccc3ccccc23)c2nnnn2C2CCCC2)CC1` (configuration not stated), the CPE inhibition is inactive: 5.14%.

Consider `COc1cc(C(=O)NCC2(N(C)C)CCCCC2)ccc1OC(F)F`, for which the CPE inhibition is inactive: -4.3%.

For `CCOC(=O)N1CCC(Nc2cccc(C)c2)CC1`, the CPE inhibition was inactive: 8.12%.

Regarding `O=C(NCC1(N2CCCCC2)CCCCC1)c1ccc(F)cc1`, the CPE inhibition is inactive: 10.2%.

As to `CCCCn1nnnc1C(c1cc2ccccc2o1)N1CCC(n2c(=O)[nH]c3ccccc32)CC1` (configuration not stated), the CPE inhibition was inactive: -2.15%.

For the molecule `CCCCOc1ccc(C(=O)NCC2(N3CCOCC3)CCCCC2)cc1`, the CPE inhibition is inactive: -4.95%.

With `CCOC(=O)N1CCC(Nc2ccc(F)cc2)CC1`, the CPE inhibition is inactive: 2.25%.

As to `CCOc1ccc(C)cc1CN(CCCl)CCCl`, the CPE inhibition is inactive: 5.08%.

On to `CC(C)(C)n1nnnc1C(c1ccccc1)N1CCC(n2c(=O)[nH]c3ccccc32)CC1` (configuration not stated), for which the CPE inhibition is inactive: -5.36%.

With `O=C1CCN(Cc2ccccc2)CC1`, the CPE inhibition is inactive: -12.6%.

In the case of `CCOC(=O)N1CCC(Nc2ccc(OC)cc2)CC1`, the CPE inhibition was inactive: 7.26%.

`CCCCn1nnnc1C(c1ccc(OC)cc1)N1CCC(n2c(=O)[nH]c3ccccc32)CC1` (configuration not stated): the CPE inhibition is inactive: -6.74%.

In the case of `O=C(OC1CN2CCC1CC2)C1c2ccccc2Oc2ccccc21` (configuration not stated), the CPE inhibition is inactive: -0.56%.

On to `O=c1[nH]c2ccccc2n1C1CCN(C(c2cc3ccccc3o2)c2nnnn2C2CCCCC2)CC1` (configuration not stated), for which the CPE inhibition is inactive: 18.7%.

`O=C(NCC1(N2CCCCC2)CCCCC1)c1ccc(Cl)s1`: the CPE inhibition is inactive: 3.28%.

Regarding `N#CC1(Nc2ccccc2)CCN(Cc2ccccc2)CC1`, the CPE inhibition was inactive: 7.17%.

For the molecule `COc1ccc(Cl)cc1C(=O)NCC1(N2CCOCC2)CCCCC1`, the CPE inhibition is inactive: 5.97%.

Regarding `O=c1[nH]c2ccccc2n1C1CCN(C(c2ccccc2OC(F)(F)F)c2nnnn2C2CCCCC2)CC1` (configuration not stated), the CPE inhibition was inactive: -7.8%.

In the case of `O=C(NCC1(N2CCCCC2)CCCCC1)c1ccc(Cl)nc1`, the CPE inhibition was inactive: -5.79%.

For the molecule `Cc1cc(C)cc(N(C(=O)c2ccccc2)C2CCN(C(=O)OC(C)(C)C)CC2)c1`, the CPE inhibition was inactive: 3.22%.

With `Cc1cccc(NC2(C#N)CCN(Cc3ccccc3)CC2)c1`, the CPE inhibition was inactive: -0.208%.

`O=C(NCC1(N2CCCCC2)CCCCC1)c1ccc(=O)[nH]c1`: the CPE inhibition is inactive: -12.4%.

As to `CCCCn1nnnc1C(c1cccs1)N1CCC(n2c(=O)[nH]c3ccccc32)CC1` (configuration not stated), the CPE inhibition was inactive: 1.23%.

Take `CCCCn1nnnc1C(CC)N1CCC(n2c(=O)[nH]c3ccccc32)CC1` (configuration not stated): the CPE inhibition was inactive: -0.874%.

With `O=C(NCC1(N2CCCCC2)CCCCC1)c1cccs1`, the CPE inhibition was inactive: 1.05%.

With `COc1ccc(C(=O)NCC2(N3CCCCC3)CCCCC2)cc1`, the CPE inhibition was inactive: -4.56%.

With `CCC(c1nnnn1C1CCCC1)N1CCC(n2c(=O)[nH]c3ccccc32)CC1` (configuration not stated), the CPE inhibition is inactive: 7.77%.

As for `COc1ccc(C(=O)NCC2(N3CCCCC3)CCCCC2)c(OC)c1OC`, the CPE inhibition was inactive: -4.47%.

Regarding `CC(C)(C)OC(=O)N1CCC(N(C(=O)c2ccccc2)c2ccc(F)cc2)CC1`, the CPE inhibition was inactive: 2.93%.

As to `Cc1ccc(C(=O)NCC2(N(C)C)CCCCC2)o1`, the CPE inhibition was inactive: -8.25%.

Consider `CCCOc1ccc(C(=O)NCC2(N(C)C)CCCCC2)cc1OC`, for which the CPE inhibition was inactive: 1.85%.

Take `COc1ccc(C(c2nnnn2C2CCCC2)N2CCC(n3c(=O)[nH]c4ccccc43)CC2)cc1` (configuration not stated): the CPE inhibition was inactive: -1.79%.

For `O=C(NCC1(N2CCCCC2)CCCCC1)c1cncc(Br)c1`, the CPE inhibition is inactive: 12.4%.

In the case of `CN1CCC(Nc2cccc(F)c2)CC1`, the CPE inhibition is inactive: 11.1%.

As for `CCCCn1nnnc1C(c1ccnc2ccccc12)N1CCC(n2c(=O)[nH]c3ccccc32)CC1` (configuration not stated), the CPE inhibition is inactive: 5.25%.

Regarding `COc1cc(OC)c(C(=O)NCC2(N(C)C)CCCCC2)cc1OC`, the CPE inhibition is inactive: -1.81%.

With `O=C(NCC1(N2CCOCC2)CCCCC1)c1cc(F)c(F)cc1Cl`, the CPE inhibition was inactive: 1.66%.

For `CCC(c1nnnn1C(C)(C)C)N1CCC(n2c(=O)[nH]c3ccccc32)CC1` (configuration not stated), the CPE inhibition is inactive: -4.18%.

For `COc1ccc(CN(CCCl)CCCl)cc1Cl`, the CPE inhibition was inactive: -8.35%.

In the case of `CN(C)c1cccc(C(=O)NCC2(N3CCCCC3)CCCCC2)c1`, the CPE inhibition was inactive: -0.442%.

Regarding `CC(C)c1ccc(NC2CCN(C(=O)OC(C)(C)C)CC2)cc1`, the CPE inhibition is inactive: 0.098%.

Regarding `CCCCn1nnnc1C(c1cccc2ccccc12)N1CCC(n2c(=O)[nH]c3ccccc32)CC1` (configuration not stated), the CPE inhibition was inactive: -1.21%.

With `CN1CCN(CCOC(=O)C(O)(c2ccccc2)c2ccccc2)CC1`, the CPE inhibition is inactive: -12.9%.

Turning to `COc1ccc(NC2CCN(C(=O)OC(C)(C)C)CC2)cc1`, the CPE inhibition was inactive: 5.28%.

As to `CC(C)c1ccc(C(=O)NCC2(N3CCOCC3)CCCCC2)cc1`, the CPE inhibition was inactive: 5.23%.

`COc1cc(C(=O)NCC2(N3CCCCC3)CCCCC2)ccc1OC(F)F`: the CPE inhibition is inactive: 9.66%.

For `O=C(NCC1(N2CCCCC2)CCCCC1)c1cccc(C(F)(F)F)c1`, the CPE inhibition is inactive: 2.33%.

With `O=C(NCC1(N2CCCCC2)CCCCC1)c1cccc([N+](=O)[O-])c1`, the CPE inhibition is inactive: 2.05%.

On to `CSc1ccc(C(=O)NCC2(N3CCOCC3)CCCCC2)cc1`, for which the CPE inhibition was inactive: -6.9%.

In the case of `CCN1CCC(Nc2ccc(Cl)cc2)CC1`, the CPE inhibition was inactive: 7.21%.

Consider `O=c1[nH]c2ccccc2n1C1CCN(C(c2ccccc2OC(F)(F)F)c2nnnn2C2CCCC2)CC1` (configuration not stated), for which the CPE inhibition is inactive: 10.8%.

On to `CC(C)(C)n1nnnc1C(c1ccccc1OC(F)(F)F)N1CCC(n2c(=O)[nH]c3ccccc32)CC1` (configuration not stated), for which the CPE inhibition is inactive: -1.45%.

On to `O=C(NCC1(N2CCCCC2)CCCCC1)c1ccc(OC(F)F)cc1`, for which the CPE inhibition was inactive: 1.64%.

For `CC(C)(C)n1nnnc1C(c1cccc2ccccc12)N1CCC(n2c(=O)[nH]c3ccccc32)CC1` (configuration not stated), the CPE inhibition was inactive: -11.1%.

As to `C/C(N)=N\P(=O)(Oc1ccccc1)Oc1ccccc1`, the CPE inhibition was inactive: 2.53%.

As for `CCCN1CCC(Nc2cc(OC)cc(OC)c2)CC1`, the CPE inhibition is inactive: -1.7%.

Take `O=c1[nH]c2ccccc2n1C1CCN(C(c2ccccc2)c2nnnn2C2CCCC2)CC1` (configuration not stated): the CPE inhibition was inactive: 16.2%.

Consider `Cc1cc(N(CCCl)CCCl)ccc1C=O`, for which the CPE inhibition is inactive: 2.22%.

As for `CN(C)C1(CNC(=O)c2cccc(C#N)c2)CCCCC1`, the CPE inhibition is inactive: -0.62%.

On to `CC(C)(C)OC(=O)N1CCC(N(C(=O)c2ccccc2)c2ccc(Cl)cc2)CC1`, for which the CPE inhibition was inactive: -0.952%.

As for `N#Cc1ccc(C(=O)NCC2(N3CCCCC3)CCCCC2)cc1`, the CPE inhibition was inactive: 8.21%.

Consider `CCCCn1nnnc1C(c1cccc(OC)c1OC)N1CCC(n2c(=O)[nH]c3ccccc32)CC1` (configuration not stated), for which the CPE inhibition was inactive: -2.38%.

In the case of `O=c1[nH]c2ccccc2n1C1CCN(C(c2cccs2)c2nnnn2C2CCCC2)CC1` (configuration not stated), the CPE inhibition is inactive: -15.7%.

For the molecule `COc1cccc(C(c2nnnn2C(C)(C)C)N2CCC(n3c(=O)[nH]c4ccccc43)CC2)c1OC` (configuration not stated), the CPE inhibition is inactive: -4.22%.

For the molecule `CCOC(=O)N1CCC(Nc2ccc(C)cc2)CC1`, the CPE inhibition was inactive: 2.44%.

`COc1ccc(C(=O)NCC2(N3CCOCC3)CCCCC2)cc1OC`: the CPE inhibition was inactive: -0.756%.

As to `O=c1[nH]c2ccccc2n1C1CCN(C(c2ccnc3ccccc23)c2nnnn2C2CCCC2)CC1` (configuration not stated), the CPE inhibition is inactive: -3.18%.

With `O=c1[nH]c2ccccc2n1C1CCN(C(c2cccs2)c2nnnn2C2CCCCC2)CC1` (configuration not stated), the CPE inhibition was inactive: 7.33%.

Turning to `O=C(NCC1(N2CCOCC2)CCCCC1)c1cc(Br)ccc1Cl`, the CPE inhibition is inactive: 4.11%.

On to `CCCCn1nnnc1C(c1ccccc1)N1CCC(n2c(=O)[nH]c3ccccc32)CC1` (configuration not stated), for which the CPE inhibition is inactive: 16.7%.

For the molecule `COc1cc(C(=O)NCC2(N3CCOCC3)CCCCC2)cc(OC)c1C`, the CPE inhibition is inactive: 0.517%.

In the case of `CN1CCC(Nc2ccc(Cl)cc2)CC1`, the CPE inhibition was inactive: 1.89%.

As to `COc1cc(OC)cc(C(=O)NCC2(N3CCOCC3)CCCCC2)c1`, the CPE inhibition is inactive: 9.09%.

Turning to `COc1cccc(C(c2nnnn2C2CCCC2)N2CCC(n3c(=O)[nH]c4ccccc43)CC2)c1OC` (configuration not stated), the CPE inhibition was inactive: -3.52%.

Take `COc1cccc(C(=O)N(c2cc(C)cc(C)c2)C2CCN(C(=O)OC(C)(C)C)CC2)c1`: the CPE inhibition was inactive: -1.81%.

Consider `CCCOc1ccc(C(=O)NCC2(N(C)C)CCCCC2)cc1`, for which the CPE inhibition is inactive: 3.16%.

On to `O=c1[nH]c2ccccc2n1C1CCN(C(c2cc3ccccc3o2)c2nnnn2C2CCCC2)CC1` (configuration not stated), for which the CPE inhibition is inactive: -2.35%.

`CC(C)(C)OC(=O)N1CCC(Nc2ccccc2)CC1`: the CPE inhibition was inactive: -4.73%.

Consider `O=C(O)C1(Nc2ccccc2)CCN(Cc2ccccc2)CC1`, for which the CPE inhibition was inactive: -1.33%.

Consider `NN(c1ccccc1)C1CCN(CCc2ccccc2)CC1`, for which the CPE inhibition is inactive: -1.36%.

With `CN1CCC(Nc2ccc(F)c(Cl)c2)CC1`, the CPE inhibition was inactive: -2.8%.

For the molecule `Cn1c(=O)[nH]cc(N(CCCl)CCCl)c1=O`, the CPE inhibition is inactive: -2.14%.

In the case of `Cc1ccccc1NC1(C#N)CCN(Cc2ccccc2)CC1`, the CPE inhibition is inactive: -5.12%.

Take `CC(C)(C)n1nnnc1C(c1ccnc2ccccc12)N1CCC(n2c(=O)[nH]c3ccccc32)CC1` (configuration not stated): the CPE inhibition is inactive: 3.6%.

For `COc1ccc(C(c2nnnn2C2CCCCC2)N2CCC(n3c(=O)[nH]c4ccccc43)CC2)cc1` (configuration not stated), the CPE inhibition was inactive: -2.55%.

On to `Cc1ccc(NC2(C#N)CCN(Cc3ccccc3)CC2)cc1`, for which the CPE inhibition is inactive: 2.99%.

`Fc1ccccc1NC1CCN(Cc2ccccc2)CC1`: the CPE inhibition is inactive: -1.39%.

For the molecule `O=c1[nH]c2ccccc2n1C1CCN(C(c2ccnc3ccccc23)c2nnnn2C2CCCCC2)CC1` (configuration not stated), the CPE inhibition was inactive: 5.27%.

As to `COc1cc(OC)cc(C(=O)NCC2(N3CCCCC3)CCCCC2)c1`, the CPE inhibition was inactive: 4.39%.

Regarding `CC(=O)N(c1ccccc1)C1CCNCC1`, the CPE inhibition is inactive: 5.24%.

Regarding `COc1cccc(C(c2nnnn2C2CCCCC2)N2CCC(n3c(=O)[nH]c4ccccc43)CC2)c1OC` (configuration not stated), the CPE inhibition was inactive: -11.3%.

As to `CCC(c1nnnn1C1CCCCC1)N1CCC(n2c(=O)[nH]c3ccccc32)CC1` (configuration not stated), the CPE inhibition is inactive: 0.938%.
